Data published in ChEMBL document CHEMBL1811908, “Design of HIV-1 integrase inhibitors targeting the catalytic domain as well as its interaction with LEDGF/p75: a scaffold hopping approach using salicylate and catechol groups” (Bioorg Med Chem, 2011).

Biological target: Human immunodeficiency virus type 1 integrase (Human immunodeficiency virus 1) (UniProt Q7ZJM1)
Assay: Selectivity ratio of IC50 for wild-type HIV1 integrase strand transfer activity over IC50 for recombinant wild-type HIV1 integrase 3'-processing activity

SMILES: O=C(NCc1ccc(F)cc1)c1cc(S(=O)(=O)N2CCCCC2)cc(O)c1O
- Ratio IC50: > 40
